Laboratory results: PubChem BioAssay AID1259414 (Drosophila RNAi Screening Center, 2018)
Screen: 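Host factors increasing or decreasing Wolbachia levels in cultured fly cells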 (primary screen). Cells: Drosophila JW18 cells infected with Wolbachia. Reagent: long dsRNA against Drosophila genes, 0.25 µg dsRNA per well of a 384-well plate. Time to read-out: 5 days. Treatment: cells persistently infected with Wolbachia before knock-down; no added drug. Detection: 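Imaged fluorescence in situ signal for Wolbachia 23S rRNA per DAPI-counted host cell, given as a robust z-score within each plate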. Scale: Wolbachia per cell robust z: higher = more Wolbachia per host cell than the plate typical. Hit rule: 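Hit when robust z is 1.5 or more, or -1.5 or less, in at least two of three replicates; excludes dsRNAs with several or no targets, genes not expressed in JW18 and well A1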.
In all, the deposit lists about 24,000 reagents; this is an unselected part of those that have a named target and a result. Over the whole deposit, about 1,210 (5%) are marked active. 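Inactive calls also include excluded dsRNAs with several or no targets, genes unexpressed in JW18, and well A1, regardless of score.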 No sequences are given here.

CG43233 [SID104218104]: Wolbachia per cell robust z, rep 1 = 0.28; Wolbachia per cell robust z, rep 2 = 1.05; Wolbachia per cell robust z, rep 3 = 0.713; outcome = inactive
CG5217 [SID104195532]: Wolbachia per cell robust z, rep 1 = -0.516; Wolbachia per cell robust z, rep 2 = -0.625; Wolbachia per cell robust z, rep 3 = 0.605; outcome = inactive
CR31054 (pseudo) [SID104201687]: Wolbachia per cell robust z, rep 1 = 0.911; Wolbachia per cell robust z, rep 2 = 1.06; Wolbachia per cell robust z, rep 3 = 1.27; outcome = inactive
CG6470 [SID104199786]: Wolbachia per cell robust z, rep 1 = 0.755; Wolbachia per cell robust z, rep 2 = 0.313; Wolbachia per cell robust z, rep 3 = 1.65; outcome = inactive
CG6470 [SID104206234]: Wolbachia per cell robust z, rep 1 = -0.553; Wolbachia per cell robust z, rep 2 = -1.26; Wolbachia per cell robust z, rep 3 = -12.2; outcome = inactive
CG31103 [SID104201825]: Wolbachia per cell robust z, rep 1 = 0.334; Wolbachia per cell robust z, rep 2 = 0.217; Wolbachia per cell robust z, rep 3 = -1.12; outcome = inactive
spz (spatzle) [SID104196857]: Wolbachia per cell robust z, rep 1 = 0.775; Wolbachia per cell robust z, rep 2 = 0.535; Wolbachia per cell robust z, rep 3 = -0.619; outcome = inactive
spz (spatzle) [SID104207364]: Wolbachia per cell robust z, rep 1 = -1.13; Wolbachia per cell robust z, rep 2 = -0.0313; Wolbachia per cell robust z, rep 3 = -0.413; outcome = inactive
spz (spatzle) [SID104216726]: Wolbachia per cell robust z, rep 1 = -0.138; Wolbachia per cell robust z, rep 2 = 1.1; Wolbachia per cell robust z, rep 3 = -0.247; outcome = inactive
CR18217 (pseudo) [SID104201230]: Wolbachia per cell robust z, rep 1 = -0.772; Wolbachia per cell robust z, rep 2 = -1.01; Wolbachia per cell robust z, rep 3 = -0.449; outcome = inactive
CG11382 [SID104198416]: Wolbachia per cell robust z, rep 1 = 0.296; Wolbachia per cell robust z, rep 2 = 1.05; Wolbachia per cell robust z, rep 3 = -0.104; outcome = inactive
CG14937 [SID104182211]: Wolbachia per cell robust z, rep 1 = 0.429; Wolbachia per cell robust z, rep 2 = 0.511; Wolbachia per cell robust z, rep 3 = 0.221; outcome = inactive

2 entries from above in another layout.
gene	PubChem SID	Wolbachia per cell robust z, rep 1	Wolbachia per cell robust z, rep 2	Wolbachia per cell robust z, rep 3	outcome
spz (spatzle)	SID104216726	-0.138	1.1	-0.247	inactive
CR18217 (pseudo)	SID104201230	-0.772	-1.01	-0.449	inactive
